Measured values: article PMC12667308 (Drug Delivery, 2025)

Target: α7 nAChR-expressing oocytes (Homo sapiens, UniProt P36544)
Test: TEVC ARA-evoked outward current in the absence of agonist
Type: cell-based

methyllycaconitine citrate salt
effect on the outward current evoked by 100 µM ARA (PNU-120596 3 µM, MLA 10 nM or Meca 10 µM pre- or coapplied 10 s, YM-254890 2–20 µM bath-applied 1–24 hour): Neither pre- nor coapplication with either antagonist could mitigate
concentration required to overcome ACh stimulation (α7 nAChR-expressing oocytes, TEVC): 10 nM
